Experimental findings from publication PMC8187626, “Clostridioides difficile specific DNA adenine methyltransferase CamA squeezes and flips adenine out of DNA helix” (Nature Communications, 2021) are described below.

In the series the target is T1, CamA (Clostridioides difficile 630) (UniProt Q183J3).
T1 sequence (looked up): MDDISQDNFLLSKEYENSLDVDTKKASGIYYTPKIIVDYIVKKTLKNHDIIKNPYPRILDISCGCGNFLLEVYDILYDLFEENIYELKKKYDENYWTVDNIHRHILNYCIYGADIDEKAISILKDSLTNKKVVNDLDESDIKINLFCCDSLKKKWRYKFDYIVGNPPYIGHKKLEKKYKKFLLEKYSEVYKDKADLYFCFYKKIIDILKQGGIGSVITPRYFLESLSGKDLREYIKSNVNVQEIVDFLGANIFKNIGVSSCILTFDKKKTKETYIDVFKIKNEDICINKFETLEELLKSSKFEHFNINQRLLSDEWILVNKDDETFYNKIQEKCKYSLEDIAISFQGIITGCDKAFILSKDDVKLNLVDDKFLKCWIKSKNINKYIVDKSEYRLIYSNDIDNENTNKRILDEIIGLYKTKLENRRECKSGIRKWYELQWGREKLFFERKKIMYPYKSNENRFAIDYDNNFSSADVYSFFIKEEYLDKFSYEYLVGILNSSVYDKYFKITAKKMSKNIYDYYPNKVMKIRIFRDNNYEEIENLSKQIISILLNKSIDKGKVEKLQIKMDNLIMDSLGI
As to the kind of experiment: ITC. The settings on record: ITC at 25 C: 200 uM DNA into 18-20 uM CamA, 20 mM HEPES pH 8.0, 0.5 mM TCEP, 5% glycerol, 150 or 250 mM NaCl (cofactor comparison at 250 mM NaCl), recombinant protein, residues 1-577, protein details: His-SUMO cleaved, leaves N-terminal His-Met.

The exact form of at least one protein or probe is not confirmed. Where a protein sequence is shown, tags need not be part of it.

As usually defined, the Kd is the free concentration of one partner at which half of the binding sites on the other are occupied at equilibrium, for simple one-to-one binding. For the sequence “CGATTCAAAAAGTCCCAAG (double strand) [substrate DNA 19 bp (CAAAAA)]”, the Kd was 40 nM (150 mM NaCl, no cofactor); 370 nM (250 mM NaCl, 100 uM SAH); 110 nM (250 mM NaCl, 100 uM sinefungin); 200 nM (250 mM NaCl, no cofactor (repeats 0.20, 0.18, 0.20)).
